Data: patent US11613538B2, “Method of inhibiting or reducing a viral infection” (PTC Therapeutics, Inc., priority 2009, dated 2023)

Tested on: HCV replicons
Assay: Selection of resistant HCV replicons
Conditions: exposure of replicon cells for up to four months; in words

COc1ccc([C@H]2c3[nH]c4ccc(Cl)cc4c3CCN2C(=O)Oc2ccc(Cl)cc2)cc1 (racemic) [Compound #10]
Attempts to generate resistant HCV replicons: unsuccessful
